Anti-infective test results gathered from many reports (values: NIAID ChemDB through PubChem).

All rows: host cell toxicity; cells: L929; endpoint: CC50

Conditions beyond the fields shown may differ between rows. CCn: concentration that lowers growth or viability of the cells by n%.

{"smiles": "O=C(CCCc1ccccc1)N1CC[N+]2(CC1)CC[N+]1(CCN(C(=O)CCCc3ccccc3)CC1)CC2", "result": ">339.2 µg/mL"}
{"smiles": "CC1=C(CC/C(C)=C/CC[C@@]2(C)CC[C@@H]([C@@H](C)C(=O)O)OO2)C(C)(C)CCC1", "result": "<0.392 µM"}
{"smiles": "Cc1nc(N2CC[N+]3(CC2)CC[N+]2(CCN(c4nc(C)nc5c4no[n+]5[O-])CC2)CC3)c2c(no[n+]2[O-])n1", "result": ">334.8 µg/mL"}
{"smiles": "CSc1nsc(-c2ccccc2)c1C(N)=O", "result": "250 µg/mL"}
{"smiles": "CN(C)c1cc(OCCOCP(=O)(O)O)nc(N)n1", "result": "<10 µM"}
{"smiles": "O=C(CC1NCCC[C@@H]1O)Cn1cncc(-c2ccccc2)c1=O", "read by": "MTT", "result": "6.3 µg/mL"}
{"smiles": "CCCSc1nsc(-c2ccccc2)c1C(N)=O", "result": "300 µg/mL"}
{"smiles": "CCc1ncn(CC(=O)CC2NCCC[C@@H]2O)c(=O)c1CC", "read by": "MTT", "result": "72.3 µg/mL"}
{"smiles": "N#Cc1c(SCCO)nsc1-c1ccccc1", "result": "5 µg/mL"}
{"smiles": "Nc1[nH]n2c(=O)cc(CN3CC[N+]4(CC3)CC[N+]3(CCN(Cc5cc(=O)n6[nH]c(N)c([N+](=O)[O-])c6n5)CC3)CC4)nc2c1[N+](=O)[O-]", "result": ">70.3 µg/mL"}
{"smiles": "O=C(CC1NCCC[C@@H]1O)Cn1cnc2ccccc2c1=O", "read by": "MTT", "result": "0.167 µg/mL"}
{"smiles": "O=c1[nH]cnc(N2CC[N+]3(CC2)CC[N+]2(CCN(c4nc[nH]c(=O)c4[N+](=O)[O-])CC2)CC3)c1[N+](=O)[O-]", "result": "132.1 µg/mL"}
{"smiles": "CCCSc1nsc(-c2ccccc2)c1C(=O)O", "result": "500 µg/mL"}
{"smiles": "Nc1cc(OCCOCP(=O)(O)O)ncn1", "result": "<10 µM"}
{"smiles": "CCCSc1nsc(-c2ccccc2)c1C(=O)OC", "result": "50 µg/mL"}
{"smiles": "O=C(CCCl)NN1CC[N+]2(CC1)CC[N+]1(CCN(NC(=O)CCCl)CC1)CC2", "result": ">393.5 µg/mL"}
{"smiles": "O=c1c2ccccc2ncn1CCCC1NCCC[C@@H]1O", "read by": "MTT", "result": "4.45 µg/mL"}
{"smiles": "Cc1cc(OCCOCP(=O)(O)O)nc(N)n1", "result": "<10 µM"}
{"smiles": "CSc1nsc(-c2ccccc2)c1C(=O)O", "result": "500 µg/mL"}
{"smiles": "CSc1nc(N)cc(OCCOCP(=O)(O)O)n1", "result": "<10 µM"}
{"smiles": "OC(CCl)CN1CC[N+]2(CC1)CC[N+]1(CCN(CC(O)CCl)CC1)CC2", "result": ">415.5 µg/mL"}